Measured values reported in article PMC12201654.

Experiments:
Assay in all cases: pull-down
[1] = target: PCV2a Rep (FLAG) (Porcine circovirus 2a) (UniProt Q77Q74); conditions: Pull-down: IP lysis buffer 4 h at 4 C (lysates) or NP-40 buffer 6 h at 4 C (recombinant), biotin-HSV60 40 ug/mL; phase separation 50-300 mM NaCl; protein in a lysate after overexpression; protein details: N-terminal FLAG; label: 5'-biotin
[2] = tested on: SUMO-PCV2d Rep (Porcine circovirus 2d); conditions: Pull-down: IP lysis buffer 4 h at 4 C (lysates) or NP-40 buffer 6 h at 4 C (recombinant), biotin-HSV60 40 ug/mL; phase separation 50-300 mM NaCl; recombinant protein; protein details: His6-SUMO, C-terminal Myc; label: 5'-biotin
[3] = target: T1, PCV4 Rep (FLAG) (Porcine circovirus 4) (UniProt A0A7M4CFI7); conditions: Pull-down: IP lysis buffer 4 h at 4 C (lysates) or NP-40 buffer 6 h at 4 C (recombinant), biotin-HSV60 40 ug/mL; phase separation 50-300 mM NaCl; protein in a lysate after overexpression; protein details: N-terminal FLAG; label: 5'-biotin
T1 sequence (looked up, limits assumed): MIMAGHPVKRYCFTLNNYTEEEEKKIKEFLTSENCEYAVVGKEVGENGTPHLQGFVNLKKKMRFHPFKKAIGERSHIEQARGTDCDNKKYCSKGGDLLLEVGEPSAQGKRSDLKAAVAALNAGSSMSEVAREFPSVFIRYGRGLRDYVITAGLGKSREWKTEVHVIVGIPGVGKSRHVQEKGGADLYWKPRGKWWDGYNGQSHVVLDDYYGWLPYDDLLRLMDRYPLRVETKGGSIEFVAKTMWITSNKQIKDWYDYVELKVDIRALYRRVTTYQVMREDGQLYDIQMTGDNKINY

[4] = tested on: PCV2d Rep (FLAG) (Porcine circovirus 2d); conditions: Pull-down: IP lysis buffer 4 h at 4 C (lysates) or NP-40 buffer 6 h at 4 C (recombinant), biotin-HSV60 40 ug/mL; phase separation 50-300 mM NaCl; protein in a lysate after overexpression; protein details: N-terminal FLAG; label: 5'-biotin
[5] = tested on: PCV2d Rep G177-179A (Porcine circovirus 2d); conditions: Pull-down: IP lysis buffer 4 h at 4 C (lysates) or NP-40 buffer 6 h at 4 C (recombinant), biotin-HSV60 40 ug/mL; phase separation 50-300 mM NaCl; protein in a lysate after overexpression; protein details: N-terminal FLAG; label: 5'-biotin
[6] = target: T2, pcGAS (HA) (pig (porcine)) (UniProt I3LM39); conditions: reduced by competing PCV2d, PCV2a or PCV4 Rep; Pull-down: IP lysis buffer 4 h at 4 C (lysates) or NP-40 buffer 6 h at 4 C (recombinant), biotin-HSV60 40 ug/mL; phase separation 50-300 mM NaCl; protein in a lysate after overexpression; protein details: HA; label: 5'-biotin
T2 sequence (looked up, limits assumed): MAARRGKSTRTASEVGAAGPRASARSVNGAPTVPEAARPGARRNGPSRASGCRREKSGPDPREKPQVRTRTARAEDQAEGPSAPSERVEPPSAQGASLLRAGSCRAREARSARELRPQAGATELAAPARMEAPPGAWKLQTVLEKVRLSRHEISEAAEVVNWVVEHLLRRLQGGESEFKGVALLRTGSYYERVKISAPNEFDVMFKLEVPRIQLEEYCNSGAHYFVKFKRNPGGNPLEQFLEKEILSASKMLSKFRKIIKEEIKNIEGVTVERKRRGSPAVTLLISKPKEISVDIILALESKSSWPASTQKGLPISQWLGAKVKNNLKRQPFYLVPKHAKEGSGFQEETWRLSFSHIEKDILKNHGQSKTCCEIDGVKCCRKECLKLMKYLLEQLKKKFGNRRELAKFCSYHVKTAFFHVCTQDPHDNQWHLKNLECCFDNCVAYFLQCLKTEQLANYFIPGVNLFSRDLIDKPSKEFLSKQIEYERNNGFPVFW

Measured: binding result

TAAGACACGATGCGATAAAATCTGTTTGTAAAATTTATTAAGGGTACAAATTGCCCTAGC (double strand) [biotin-HSV60]
binds: all assays above

Construct, isoform or probe ends are uncertain for at least one entry. For part of these data: Results from cells or extracts need not show a direct contact. For part of these data: At least one verdict rests on a figure or table, not on a statement of the authors. For part of these data: Protein sequences can lack the tags named with them.
